This note sets out measurements from publication doi:10.1101/2022.07.05.498809.

This data set concerns His-MBP-AlpA (Pseudomonas aeruginosa ID40). The data set is described as follows: EMSA.

The exact form of at least one protein or probe is not confirmed.

Take “CGGTGTTGCACGCGGCGGGACGCTCGCGGTAGTTTTTTCCCATGATCACG (double strand) [ABE probe (ampDh3 promoter)]”: the binding result (1.25 uM protein, 0.3125 nM probe, weak, smeary shift) is on record as “binds”; the binding result (plus BSA (5 and 12.5 uM), complex unaffected) is listed as “binds”.
